# Single amino acid changes in Zika NS2B-NS3 and viral growth

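Pools of virus carrying all single amino acid changes were selected for growth in Huh-7.5 cells. Sequencing of three replicate libraries (two for positions 207-308) was averaged into one effect per change. The study looked for pockets that tolerate few changes, as a guide for inhibitor design.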

Protein: NS2B and the protease part of NS3 of Zika virus strain MR766. Positions count along the chain below; NS2B spans 2-131 and NS3 starts at 132.
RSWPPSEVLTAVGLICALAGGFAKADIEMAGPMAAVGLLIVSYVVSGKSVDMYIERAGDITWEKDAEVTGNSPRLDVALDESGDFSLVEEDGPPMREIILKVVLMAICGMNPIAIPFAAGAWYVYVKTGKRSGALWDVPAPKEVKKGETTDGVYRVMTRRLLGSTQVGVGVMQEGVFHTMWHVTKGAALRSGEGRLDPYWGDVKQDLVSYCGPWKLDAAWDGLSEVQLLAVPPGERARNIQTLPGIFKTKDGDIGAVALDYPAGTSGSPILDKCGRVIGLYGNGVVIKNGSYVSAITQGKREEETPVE

The number is log2 of the effect relative to wild type; negative values mean reduced growth, higher values better tolerance. A change reads original residue, position, new residue.

| # | change | log2 growth effect |
|---|---|---|
| 1 | G152H | -5.73 |
| 2 | S224F | -5.63 |
| 3 | P5D | -5.92 |
| 4 | E308P | 0.00 |
| 5 | P4F | -5.03 |
| 6 | Q173E | -1.56 |
| 7 | D221N | -6.17 |
| 8 | N289S | -4.64 |
| 9 | V167K | -5.57 |
| 10 | I254D | -5.98 |
| 11 | L18I | -1.79 |
| 12 | L38W | -6.80 |
| 13 | A219L | 1.37 |
| 14 | L135M | -3.51 |
| 15 | K101S | -7.32 |
| 16 | G282A | -5.42 |
| 17 | L196A | -6.30 |
| 18 | D151I | -5.79 |
| 19 | G192T | -6.23 |
| 20 | W122I | -5.40 |
| 21 | T150R | -3.01 |
| 22 | M29Q | -1.40 |
| 23 | P269T | -6.20 |
| 24 | V77K | -6.43 |
| 25 | V183F | -5.56 |
| 26 | Y292T | -4.70 |
| 27 | M172N | -5.65 |
| 28 | V156A | -6.53 |
| 29 | W214R | -9.16 |
| 30 | I40P | -6.00 |
| 31 | L135G | -7.75 |
| 32 | R159A | -5.15 |
| 33 | T158V | -1.73 |
| 34 | T150K | -2.19 |
| 35 | W136C | -3.16 |
| 36 | P116E | -5.56 |
| 37 | V88P | -6.86 |
| 38 | M95D | -4.74 |
| 39 | L100H | -5.23 |
| 40 | A218S | -1.94 |
| 41 | A30G | -0.49 |
| 42 | A230E | -4.86 |
| 43 | S164H | -0.07 |
| 44 | V138H | -2.50 |
| 45 | N111C | -2.95 |
| 46 | D217G | -5.69 |
| 47 | T305R | -1.00 |
| 48 | E225H | -3.10 |
| 49 | A106T | -0.55 |
| 50 | G212Y | -6.41 |
| 51 | G21R | -8.36 |
| 52 | A219P | -7.32 |
| 53 | V156M | -5.88 |
| 54 | C16T | -3.50 |
| 55 | R236V | 1.23 |
| 56 | A106D | -4.09 |
| 57 | L207C | -3.92 |
| 58 | L14Y | -5.61 |
| 59 | A134Q | -5.49 |
| 60 | V45F | -4.56 |
| 61 | E303A | 0.02 |
| 62 | V103P | -6.56 |
| 63 | V231* | -7.14 |
| 64 | K24R | -1.08 |
| 65 | T249E | -4.69 |
| 66 | G255L | -7.99 |
| 67 | G194V | -7.06 |
| 68 | A219S | -0.15 |
| 69 | G264H | -3.97 |
| 70 | L87P | -7.38 |
| 71 | A263W | -5.22 |
| 72 | L207D | -6.92 |
| 73 | A134K | -4.74 |
| 74 | Q241C | -4.63 |
| 75 | R56W | -2.53 |
| 76 | V307D | -3.89 |
| 77 | K130H | -6.47 |
| 78 | T150D | -2.16 |
| 79 | K185N | -5.72 |
| 80 | P244S | -4.16 |
| 81 | W181A | -5.61 |
| 82 | G252L | -6.02 |
| 83 | L280P | -6.83 |
| 84 | V171Y | -5.00 |
| 85 | R238W | -5.54 |
| 86 | D26L | -6.70 |
| 87 | G21Y | -0.54 |
| 88 | W200I | -6.24 |
| 89 | A114W | -1.39 |
| 90 | S82G | -5.46 |
| 91 | W136G | -6.83 |
| 92 | Y154M | -5.45 |
| 93 | T184W | -5.63 |
| 94 | S209D | -5.62 |
| 95 | G92Y | -1.11 |
| 96 | A118I | -5.39 |
| 97 | L271K | -3.88 |
| 98 | G264I | -4.45 |
| 99 | P213T | -2.38 |
| 100 | V277W | -4.31 |

A selection of 12 entries from above:

change	log2 growth effect
P244S	-4.16
L100H	-5.23
P213T	-2.38
A118I	-5.39
G212Y	-6.41
G192T	-6.23
G252L	-6.02
L207D	-6.92
A106D	-4.09
G194V	-7.06
G152H	-5.73
A106T	-0.55

Position 1 still belongs to NS2A. In the paper, -1 or higher counts as tolerated. An asterisk is a stop codon; stop codons read about -7, near the floor of the assay. Values above 0 are not proof of better growth: six high scorers were tested one by one, five grew less well than wild type and one about as well. Positions 1-103, 104-206 and 207-308 were made and measured as separate libraries.

Source: Ni et al. 2025 (doi:10.1038/s41467-025-63602-z), supplementary data.